In one assay the test system is KS tumors and cells. Description: Overall anti-KS activity of hCG preparations and peptides in vitro and in vivo.
Another assay deals with HIV. As to the kind of experiment: HIV assays (anti-viral effects).
Assay [1] is described as follows: Weight change in patients treated with hCG preparations. The assay is classed as in vivo, human.
The test system of the next assay is CD4+ T cells. Description: CD4+ T cell levels in HIV patients treated with hCG preparations. The assay is classed as in vivo, human. To be noted: for CD4/mm^3 Rx: KS-C; for CD4+ T cells: patient PH-SPBE.
A further assay concerns HIV-1. Particulars: for Viral Load Rx: KS-C.

The results in this text go back to US5997871A (priority 1996, dated 1999).

Read-outs that look alike come from different tables or passages of the source.

Consider “CR127: highly purified hCG preparation (heterodimer)”, for which, in the assay on KS tumors and cells, the “activities of native hCG preparations (anti-KS, anti-viral, pro-hematopoietic) mimicked or retained” value is recorded as “did not retain these activities”. Further, the “activity in the HIV assays” value in the assay with HIV was “inactive”.
As to human chorionic gonadotropin [hCG], the “weight gain in treated patients overall” value in assay [1] (hCG-treated patients, even some in the most advanced stages of HIV infection) is given as “Weight gain was recorded in a substantial portion of patients”. The substance also displayed a Weight gain in assay [1] (patient PH-GA, KS-C, 15,000 IU/week, Rx 12+ weeks) of 0 kg. Moreover, the “CD4/mm^3 Rx” value in the assay with CD4+ T cells (patient PG-4 (no other antiviral therapy), 35,000 IU/week, Rx 16+ weeks, PreRX 47, M4) is 424 /mm^3; in the assay on CD4+ T cells (patient PH-OJ (on RT inhibitors), 12,500 IU/week, Rx 31+ weeks, PreRX 14, M4), “did not experience an increase”; with CD4+ T cells (patient PH-VE (on RT inhibitors), 12,500 IU/week, Rx 80+ weeks, PreRX 105, M4), 160 /mm^3; in the assay with CD4+ T cells (patient PH-VE, 30,000 IU/week (M20), PreRX 105, M20 (text: 68 weeks)) it was 204 /mm^3. In the assay with CD4+ T cells (patient PG-4, no other antiviral therapy, 47 to 424 mm^3), the “rise in CD4+ T cell levels” value came out at 10 fold. For the same substance, the “CD4+ T cells” value in the assay on CD4+ T cells (Ritonavir therapy added at 22 weeks to ongoing hCG) was “over 300 mm^3”; with CD4+ T cells (systemic 25,000 then 40,000-60,000 IU per week, before Ritonavir) it was “stabilized in the mid-100 mm^3 s”. For the same substance, the “last viral load measurement” value in the assay on HIV-1 (patient PG2, Roche Amplicor, 10,496 copies before hCG, started Norvir after hCG) was 15,542 copies; with HIV-1 (patient PG-16, 47,931 copies before hCG, started Ritonavir after hCG), 370 copies; with HIV-1 (patient PG-18, 3673 copies before hCG, started Crixivan after hCG), 1742 copies. In the assay with HIV-1 (patient PG-1, on reverse transcriptase inhibitors at enrollment), the “drop in viral load” value was determined as 1 log. Further, in the assay on HIV-1 (patient PH-DP, CDC stage B1 HIV disease without KS, TCID assay, no change in preexisting anti-viral therapy), the “reduction in viral load” value turned out to be 2 log. Further, the “Viral Load Rx” value with HIV-1 (patient PH-GA, 15,000 IU/week, Rx 12+ weeks, RT-PCR, PreRX 2,500) is given as 500 copies; in the assay with HIV-1 (patient PH-OJ (on RT inhibitors), 12,500 IU/week, RT-PCR, PreRX 100,000), 2500 copies; in the assay on HIV-1 (patient PH-SPBE (on RT inhibitors), 25,000 IU/week, NASBA, PreRX 1,490,000, before Ritonavir was added), 700,000 copies; with HIV-1 (patient PH-VE (on RT inhibitors), 12,500 IU/week, NASBA, PreRX 230,000), 11,000 copies. Also, the viral load with HIV-1 (patient PH-JPV, Roche Amplicor, 500,000 copies before hCG, week 4 of hCG alone) is 4,900,000 copies; in the assay on HIV-1 (patient PH-JPV, following indinavir (Crixivan) added after hCG induced pulmonary response) it was “undetectable viral load”; in the assay on HIV-1 (patient PH-SPBE, NASBA, after Ritonavir added to ongoing hCG treatment, 770,000 copies before) it was 120,000 copies; with HIV-1 (patient PH-SPBE, NASBA, after Ritonavir added to ongoing hCG treatment, 770,000 copies before, listed as hCG preparation), “reduced further”. In addition, the “decrease in viral load” value in the assay on HIV-1 (patient PH-VE, NASBA, 230,000 to 11,000 copies, low dose intralesional then subcutaneous injections for 6 weeks) is 1.5 log.
